The source of these data is patent US7276510B2, “HIV replication inhibitors” (Janssen Pharmaceutica, Inc., priority 2000, dated 2007).

This series has as its system HIV-infected MT-4 cells. The series is described as follows: Inhibition of the HIV-induced cytopathic effect in MT-4 cells (MTT). It counts as cell-based. The note with it: CC50/IC50 in MT-4 cells. The protocol:
A rapid, sensitive and automated assay procedure was used for the in vitro evaluation of anti-HIV agents. An […] T4-cell line, MT-4, which was previously shown (Koyanagi et al., Int. J. Cancer, 36, 445-451, 1985) to be highly susceptible to and permissive for HIV infection, served as the target cell line. Inhibition of the HIV-induced cytopathic effect was used as the end point. The viability of both HIV- and mock-infected cells was assessed spectrophotometrically via the in situ reduction of 3-(4,5-dimethylthiazol-2-yl)-2,5-diphenyltetrazolium bromide (MTT). […] The percent protection achieved by the compound in HIV-infected cells was calculated by the following formula:
[formula] whereby (ODT)HIV is the optical density measured with a given concentration of the test compound in HIV-infected cells; (ODC)HIV is the optical density measured for the control untreated HIV-infected cells; (ODC)MOCK is the optical density measured for the control untreated mock-infected cells; all optical density values were determined at 540 nm. […] The ratio of CC50 to IC50 was defined as the selectivity index (SI).

On to `CSc1nc(Nc2ccc(C#N)cc2)nc(Nc2c(C)cc(C)cc2C)n1` [Compound 20], for which the “SI (selectivity index, ratio of CC50 to IC50)” value is 1990.

Turning to `Cc1cc(C)c(Oc2cc(C(F)(F)F)nc(Nc3ccc(C#N)cc3)n2)c(C)c1` [Compound 25], the “SI (selectivity index, ratio of CC50 to IC50)” value is greater than 1266.

With `Cc1cc(C)c(Oc2nc(Nc3ccc(C#N)cc3)nc(C(N)=O)n2)c(C)c1` [Compound 26], the “SI (selectivity index, ratio of CC50 to IC50)” value is on record as 1995.

Take `COCc1cc(Oc2c(Br)cc(C#N)cc2Br)nc(Nc2ccc(C#N)cc2)n1` [Compound 27]: the “SI (selectivity index, ratio of CC50 to IC50)” value was greater than 1000.

In the case of `N#Cc1ccc(Nc2nc(Cc3c(Cl)cccc3Cl)nc(N3C(=O)CCC3=O)n2)cc1` [Compound 48], the “SI (selectivity index, ratio of CC50 to IC50)” value is greater than 12658.

As for `CCOc1nc(Cc2c(Cl)cccc2Cl)nc(Nc2ccc(C#N)cc2)n1` [Compound 58], the “SI (selectivity index, ratio of CC50 to IC50)” value worked out at 1997.

Take `N#Cc1ccc(Nc2nc(Cl)nc(Nc3c(Cl)cc(Cl)cc3Cl)n2)cc1` [Compound 85]: the “SI (selectivity index, ratio of CC50 to IC50)” value stood at 2506.

As for `Cc1cc(Cl)cc(Cl)c1Nc1nc(Cl)nc(Nc2ccc(C#N)cc2)n1` [Compound 109], the “SI (selectivity index, ratio of CC50 to IC50)” value stood at 3163.
